# Replication capacity of HIV-1 mutants, Gag

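Random point mutant libraries of HIV-1 NL4-3, one for each of seven fragments, were passaged in CEM T lymphocytes. Sequencing gave the RC index: frequency after two rounds over frequency in the input plasmid.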

Protein: Gag of HIV-1 NL4-3, numbered from its first residue. Gag is numbered as the whole polyprotein.
Effects on overlapping genes or RNA elements are not listed.

A higher RC index is a better tolerated change; approximate classes are lethal up to 0.1, attenuated to 0.2, tolerated above. Substitutions are written as wild-type residue, site number, new residue. Input reads are the counts in the plasmid library.

mutation	base	region	input reads	RC index
M171I	G1302C	CA	73	0.0730
F172I	T1303A	CA	335	0.0265
F172L	T1303C	CA	250	0.0426
F172L	T1305G	CA	82	0.130
S173T	T1306A	CA	291	0.159
A174S	G1309T	CA	244	0.0509
L175I	T1312A	CA	412	0.0345
L175S	T1313C	CA	240	0.148
L175F	A1314T	CA	481	0.0406
E177K	G1318A	CA	195	0.155
E177V	A1319T	CA	181	0.0196
E177D	A1320T	CA	291	0.0488
G178R	G1321A	CA	167	0.213
G178E	G1322A	CA	243	0.175
A179T	G1324A	CA	564	0.107
A179P	G1324C	CA	183	0.0776
A179S	G1324T	CA	191	0.0744
A179D	C1325A	CA	140	0.101
T180S	A1327T	CA	256	0.0624
P181T	C1330A	CA	280	0.184
P181L	C1331T	CA	237	0.0599
Q182R	A1334G	CA	489	0.0581
D183N	G1336A	CA	180	0.306
D183H	G1336C	CA	76	0.0467
D183G	A1337G	CA	208	0.0512
D183E	T1338A	CA	218	0.0815
L184S	T1340C	CA	218	0.0570
N185Y	A1342T	CA	161	0.0662
T186N	C1346A	CA	131	0.0542
T186S	C1346G	CA	229	0.0233
T186I	C1346T	CA	566	0.0690
M187K	T1349A	CA	362	0.0540
M187T	T1349C	CA	280	0.0824
M187I	G1350C	CA	162	0.0548
L188I	C1351A	CA	290	0.0184
L188Q	T1352A	CA	89	0.0399
N189D	A1354G	CA	250	0.0568
N189Y	A1354T	CA	176	0.0202
N189I	A1355T	CA	289	0.0430
T190A	A1357G	CA	278	0.0319
T190I	C1358T	CA	724	0.0736
V191A	T1361C	CA	237	0.0974
V191G	T1361G	CA	33	0.484
G192R	G1363A	CA	342	0.109
G192E	G1364A	CA	279	0.127
G193E	G1367A	CA	495	0.129
G193V	G1367T	CA	109	0.147
H194N	C1369A	CA	70	0.101
H194Y	C1369T	CA	324	0.115
H194R	A1370G	CA	252	0.0282
H194Q	T1371A	CA	232	0.0689
Q195K	C1372A	CA	105	0.237
Q195H	A1374C	CA	111	0.0480
Q195H	A1374T	CA	583	0.0244
A196T	G1375A	CA	432	0.127
A196P	G1375C	CA	53	0.201
A197S	G1378T	CA	209	0.0595
A197D	C1379A	CA	82	0.0866
A197G	C1379G	CA	115	0.0309
M198L	A1381T	CA	411	0.0389
M198I	G1383C	CA	140	0.0507
M198I	G1383T	CA	94	0.0945
Q199L	A1385T	CA	337	0.0316
Q199H	A1386T	CA	455	0.152
M200V	A1387G	CA	490	0.0641
M200K	T1388A	CA	769	0.0408
M200R	T1388G	CA	230	0.0597
M200I	G1389A	CA	780	0.179
M200I	G1389C	CA	85	0.185
M200I	G1389T	CA	157	0.100
L201I	T1390A	CA	801	0.0588
L201S	T1391C	CA	494	0.0914
L201F	A1392T	CA	1139	0.0517
K202E	A1393G	CA	824	0.0357
K202R	A1394G	CA	398	0.0641
K202I	A1394T	CA	376	0.0522
E203V	A1397T	CA	623	0.0662
T204P	A1399C	CA	69	0.0569
T204N	C1400A	CA	233	0.0646
I205L	A1402C	CA	88	0.0733
I205T	T1403C	CA	366	0.123
I205M	C1404G	CA	190	0.0339
N206I	A1406T	CA	564	0.0267
N206K	T1407A	CA	430	0.0550
E208G	A1412G	CA	337	0.0893
E208V	A1412T	CA	140	0.0921
E208D	A1413T	CA	244	0.0881
A209T	G1414A	CA	575	0.127
A209P	G1414C	CA	164	0.236
A209D	C1415A	CA	283	0.0304
A210P	G1417C	CA	118	0.0729
A210S	G1417T	CA	163	0.0527
A210E	C1418A	CA	219	0.0982
E211G	A1421G	CA	338	0.0636
W212R	T1423C	CA	276	0.0389
D213N	G1426A	CA	367	0.310
D213H	G1426C	CA	107	0.0804
D213G	A1427G	CA	460	0.0794
R214I	G1430T	CA	391	0.0990
R214S	A1431T	CA	258	0.0583
L215M	T1432A	CA	437	0.0590
L215W	T1433G	CA	87	0.0494
L215F	G1434C	CA	96	0.0672
H216N	C1435A	CA	297	0.0434
P217R	C1439G	CA	82	0.0786
V218G	T1442G	CA	43	0.150
H219Y	C1444T	CA	688	0.0875
H219P	A1445C	CA	73	0.0294
H219Q	T1446A	CA	487	0.0353
A220P	G1447C	CA	54	0.279
A220E	C1448A	CA	168	0.102
A220G	C1448G	CA	96	0.0448
G221E	G1451A	CA	267	0.177
G221V	G1451T	CA	248	0.121
P222L	C1454T	CA	270	0.0637
I223F	A1456T	CA	283	0.0532
I223N	T1457A	CA	626	0.0584
I223T	T1457C	CA	368	0.327
A224T	G1459A	CA	1112	0.0735

An index over 1, which the authors read as above wild type, was rare (1.9% of all changes in the genome). Base changes are numbered along pNL4-3. Clones carried about five changes per kilobase, which can drag down the index of neutral changes.

Reference: Al-Mawsawi et al. 2014, doi:10.1186/s12977-014-0124-6.